Anti-infective test results gathered from many reports (values: NIAID ChemDB through PubChem).

All rows: tests in culture; species: Mycobacterium tuberculosis

Inhibition is in % at the dose shown (toxicity tests: loss of growth or viability).

compound,strain,mutations,method,conditions,read-out,dose,value
CCN(CC)CCNC(=O)c1cc([N+](=O)[O-])cc([N+](=O)[O-])c1,N353,,,,MIC,,5 µg/mL
Cc1ccc(Cn2nnc(-c3cc([N+](=O)[O-])cc([N+](=O)[O-])c3)n2)cc1,9449/2007,,,21 d,MIC,,0.125 µM
CCn1c(SCC(=O)N=Nc2c(O)[nH]c3ccccc23)nc2ccccc2c1=O,H37Rv,,,,MIC,,>12.5 µg/mL
CCC1=C2C(=O)c3ccccc3C2=C(C)S(=O)(=O)O1,H37Rv,,BACTEC,,MIC bound,,>12.5 µg/mL
CO[C@H]1/C=C/O[C@@]2(C)Oc3c(C)c(O)c4c(O)c(c5c(c4c3C2=O)NC2(CCN(CC(C)C)CC2)N=5)=NC(=O)/C(C)=C\C=C\[C@H](C)[C@H](O)[C@@H](C)[C@@H](O)[C@@H](C)[C@H](OC(C)=O)[C@@H]1C,H37Rv-pSL (Leu 531 mutation),,,,MIC,,16 µg/mL
O=C(CSc1nc(-c2ccccc2)c(-c2ccccc2)[nH]1)N=Nc1c(O)[nH]c2ccccc12,H37Rv,,,,MIC,,>12.5 µg/mL
COC1OC2COC(c3ccccc3)OC2C(NC(=S)SCc2ccccc2)C1O,H37Rv,,resazurin,,inhibition,6.25 µg/mL,7%
Cc1ccn2c(C(=O)NCc3ccc4c(c3)CCO4)c(C)nc2c1,H37Rv,,resazurin,,MIC90,,<2 µM
NNC(=O)c1ccncc1,AZD5847-resistant 8.8,T460C Cys154Arg,,,MIC,,0.06 µg/mL
Oc1[nH]c2ccc(OC(F)(F)F)cc2c1N=NC(=S)Nc1ccc(Br)cc1,H37Rv,,broth dilution / resazurin,,EC90,,1.53 µg/mL
CNc1nc2c(C)ccc3[nH]c(N(C)C)nc3c-2n1.Cl.Cl,H37Rv,,BACTEC,,inhibition,12.5 µg/mL,28%
CCN(CC)CCNC(=O)c1cccc([N+](=O)[O-])c1,N73,,,,MIC,,50 µg/mL
Cc1ccc2c(c1)c(N=NC(=S)Nc1ccc(Br)cc1)c(O)n2C,H37Rv,,broth dilution / resazurin,,EC50,,>100 µg/mL
Cc1nc2ccc(Cl)cn2c1C(=O)NCc1ccc(N2CCC(c3ccc(OC(F)(F)F)cc3)CC2)cc1,H37Rv,,resazurin,,MIC90,,<2 µM
CC(=O)c1cccc(NC(=O)C(=O)Nn2c(N)nnc2N)c1,H37Rv,,BACTEC,,inhibition,12.5 µg/mL,-11%
CC1=C(C(=O)Nc2ccc([N+](=O)[O-])cc2)C(c2ccccc2Cl)C(C(=O)Nc2ccc([N+](=O)[O-])cc2)=C(C)N1,H37Rv,,,,EC50,,<2.5 µg/mL
CCNC(=O)c1c(NC(=O)c2c(F)c(F)c(F)c(F)c2F)sc2c1CCN(CC)C2,H37Rv,gyrA mutant (D94N),turbidity,,EC90,,11 µM
Cc1ccn2c(C(=O)NCc3ccc(NCCN4CCOCC4)c(F)c3)c(C)nc2c1,H37Rv,,resazurin,,MIC90,,2–10 µM
CC[C@@H](CO)NCCN[C@@H](CC)CO,H37Rv,,resazurin,,MIC,,7.63 µM
CC1COc2c(N3CCN(C(N)=NC#N)CC3)c(F)cc3c(=O)c(C(=O)O)cn1c23,ATCC 35822,,broth dilution,,MIC,,0.625 µg/mL
CCOC(=O)c1c(NC(=O)c2c(F)c(F)c(F)c(F)c2F)sc2c1CCOC2,H37Rv,gyrA mutant (D94N),turbidity,,MIC,,0.33 µM
CC1=C(C(=O)Nc2ccccc2Cl)C(c2ccccc2S)C(C(=O)Nc2ccccc2Cl)=C(C)N1,H37Rv,,,,EC50,,>2.5 µg/mL
CN[C@@H]1[C@H](O[C@H]2[C@H](O[C@H]3[C@H](O)[C@@H](O)[C@H](N=C(N)N)[C@@H](O)[C@@H]3N=C(N)N)O[C@@H](C)[C@]2(O)C=O)O[C@@H](CO)[C@H](O)[C@H]1O,STR-resistant (ATCC 35820),,broth dilution,,MIC,,>8 µg/mL
CCNC(=S)N=Nc1c(O)[nH]c2ccc(Br)cc12,H37Rv,,,,inhibition,12 µg/mL,57%
COc1cc(/C=N/NC(=O)C(C)SC(C)C(=O)N/N=C/c2cc(OC)c(OC)c(OC)c2)cc(OC)c1OC,H37Rv,,BACTEC,,inhibition,12.5 µg/mL,0%
C=CCNC(=S)N=Nc1c(O)[nH]c2ccc(Br)cc12,H37Rv,,,,EC50,,<12 µg/mL
CCN1CCc2c(sc(NC(=O)c3c(F)c(F)c(F)c(F)c3F)c2C(=O)NC)C1,ATCC35838,,turbidity,,MIC,,3 µM
CCNC(=S)N=Nc1c(O)n(C)c2ccc(C)cc12,H37Rv,,broth dilution / resazurin,,EC90,,>100 µg/mL
CN=C(N=Nc1c(O)[nH]c2ccccc12)SCC(=O)c1ccccc1,H37Rv,,,,EC50,,<12 µg/mL
Clc1ccc(OCc2nnc3n2N=C(c2ccc(Br)cc2)CS3)cc1,H37Rv,,BACTEC,,MIC bound,,>12.5 µg/mL
CNC(=S)N=Nc1c(O)[nH]c2ccccc12,H37Rv,,,,MIC,,>12.5 µg/mL
Cn1c(O)c(N=NC(=S)Nc2ccc([N+](=O)[O-])cc2)c2cc(OC(F)(F)F)ccc21,H37Rv,,broth dilution / resazurin,,EC50,,>100 µg/mL
C/C1=C\[C@@H](C)C/C=C/[C@H]2[C@@H]3O[C@]3(C)[C@@H](C)[C@H]3[C@H](Cc4c[nH]c5ccccc45)NC(=O)[C@]32C(=O)/C=C/C(=O)[C@@H]1O,H37Rv,,BACTEC,,inhibition,12.5 µg/mL,25%
COc1ccccc1NC(=O)C1=C(C)NC(C)=C(C(=O)Nc2ccccc2OC)C1c1cccc([N+](=O)[O-])c1,H37Rv,,,,EC50,,<2.5 µg/mL
C=CCn1c(-c2ccc(OC)cc2)cs/c1=N\N=C1/C(=O)Nc2ccccc21,H37Rv,,,,MIC,,12.5 µg/mL
COc1ccc2c(c1)C1(C)c3cc(OC)ccc3OC1(C)O2,H37Rv,,BACTEC,,MIC bound,,>12.5 µg/mL
CC1COc2c(N3CCN(C)CC3)c(F)cc3c(=O)c(C(=O)O)cn1c23,DKU220,,broth dilution,,MIC,,0.5 µg/mL
Cc1cn2c(C(=O)NCc3ccc4c(c3)CCO4)c(C)nc2s1,H37Rv,,resazurin,,MIC90,,2–10 µM
CC(CCC(=O)N[C@@H](C)C(=O)OCc1cn(CC2OC(n3cnc4c(N)ncnc43)[C@@H]3OC(C)(C)O[C@H]23)nn1)[C@H]1CCC2C3CCC4C[C@H](O)CC[C@]4(C)C3C[C@H](O)[C@@]21C,H37Rv,,resazurin,,MIC,,14.99 µM
CC1=C(C(=O)Nc2ccc(Cl)cc2)C(c2cccc([N+](=O)[O-])c2)C(C(=O)Nc2ccc(Cl)cc2)=C(C)N1,H37Rv,,,,inhibition,2.5 µg/mL,29%
COC(=O)C1=C2\c3cc4c(cc3CCN2C(=O)c2ccc(OC)c(OC)c2/C(OC)=C\1)OCO4,H37Rv,,BACTEC,,inhibition,12.5 µg/mL,14%
CN[C@@H]1[C@H](O[C@H]2[C@H](O[C@H]3[C@H](O)[C@@H](O)[C@H](N=C(N)N)[C@@H](O)[C@@H]3N=C(N)N)O[C@@H](C)[C@]2(O)C=O)O[C@@H](CO)[C@H](O)[C@H]1O,7357/1998,,,,MIC,,>27.5 µM
CCCCNC(=S)N=Nc1c(O)n(C)c2ccc(OC(F)(F)F)cc12,H37Rv,,broth dilution / resazurin,,EC50,,40.76 µg/mL
CCN1CCc2c(sc(NC(=O)c3c(F)c(F)c(F)c(F)c3F)c2C#N)C1,H37Rv,gyrA mutant (D94N),turbidity,,EC90,,20 µM
CC(C)=CCC/C(C)=C/COc1ccc(/C=C2\C(=O)N(O)[C@@H](C)C(=O)N2O)cc1,EMB-R,,,,MIC,,6.3 µg/mL
CC(C)N=c1cc2n(-c3ccc(Cl)cc3)c3ccccc3nc-2cc1Nc1ccc(Cl)cc1,Praha 4,,,,MIC,,0.53 µM
O=C1CN(CCN2CCCCC2)CC(=O)N2Cc3ccccc3CN12,H37Rv,,BACTEC,,inhibition,12.5 µg/mL,4%
Cc1ccc2c(c1)c(N=NC(=S)Nc1ccccc1)c(O)n2C,H37Rv,,broth dilution / resazurin,,EC50,,46.5 µg/mL
Cc1cn2c(C(=O)NCc3ccc(Oc4ccc(C(F)(F)F)cc4)cc3)c(C)nc2s1,H37Rv,,resazurin,,MIC90,,<2 µM
O=C(N/N=C/c1ccc(O)cc1O)c1ccncc1,PZA-R,,,,MIC,,2 µg/mL
NC(=O)c1cnccn1,W296,,,,MIC,,>900 µg/mL
CN[C@@H]1[C@H](O[C@H]2[C@H](O[C@H]3[C@H](O)[C@@H](O)[C@H](N=C(N)N)[C@@H](O)[C@@H]3N=C(N)N)O[C@@H](C)[C@]2(O)C=O)O[C@@H](CO)[C@H](O)[C@H]1O,U108,,,,MIC,,64 µg/mL
CO[C@H]1/C=C/O[C@@]2(C)Oc3c(C)c(O)c4c(O)c(c(/C=N/N5CCN(C)CC5)c(O)c4c3C2=O)NC(=O)/C(C)=C\C=C\[C@H](C)[C@H](O)[C@@H](C)[C@@H](O)[C@@H](C)[C@H](OC(C)=O)[C@@H]1C,JHU H37Rv,,BACTEC,,MIC,,0.063 µg/mL
COc1ccc(C2C=C(C)Oc3c2c(=O)oc2ccccc32)cc1OC,H37Rv,,BACTEC,,MIC bound,,>12.5 µg/mL
CCC(C)[C@H](NC(=O)CCC(C)[C@H]1CCC2C3CCC4C[C@H](O)CC[C@]4(C)C3C[C@H](O)[C@@]21C)C(=O)OCc1cn(CC2OC(n3ccc(=O)[nH]c3=O)[C@@H]3OC(C)(C)O[C@H]23)nn1,H37Rv,,resazurin,,MIC,,14.65 µM
Cc1ccc(Nc2c(C#N)[n+]([O-])c3cc(Cl)ccc3[n+]2[O-])cc1,H37Rv,,,,inhibition,12.5 µg/mL,99%
NNC(=O)c1ccncc1,H37Rv,,luminescence,,EC50,,0.35 µM
CCOC(=O)c1cc(-c2ccccc2)sc1NC(C)=O,H37Rv,,resazurin,,MIC,,>100 µg/mL
C=CCN=C(N=Nc1c(O)[nH]c2ccccc12)SCC(=O)c1ccc(Br)cc1,H37Rv,,,,inhibition,12 µg/mL,87%
N#Cc1c(NC(=O)c2c(F)c(F)c(F)c(F)c2F)sc2c1CCOC2,ATCC 35822,,turbidity,,EC90,,13 µM
Nc1[nH]nc2nc(CC(=O)c3ccc([N+](=O)[O-])cc3)c(CC(=O)c3ccc([N+](=O)[O-])cc3)n[n+]12,H37Rv,,BACTEC,,MIC bound,,>12.5 µg/mL
CCOC(=O)c1c(NC(=O)c2c(F)c(F)c(F)c(F)c2F)sc2c1CCNC2=O,H37Rv,katG Y155 truncation mutant,turbidity,,MIC,,4.4 µM
COc1ccc2c(c1)CC(CN1CCC3(CC1)C(=O)NCN3c1ccccc1)O2,H37Rv,,BACTEC,,inhibition,12.5 µg/mL,50%
Cc1cn2c(C(=O)NCc3ccc(N4CCS(=O)(=O)CC4)cc3)c(C)nc2s1,H37Rv,,resazurin,,MIC90,,<2 µM
CC(=O)Nc1ccc(C(=O)N[C@@H]2C(=O)N3C2SC(C)(C)C3C(=O)O)cn1,H37Rv,,BACTEC,,inhibition,12.5 µg/mL,19%
CC[N+](C)(CC)CCNC(=O)c1cc([N+](=O)[O-])cc([N+](=O)[O-])c1,N353,,,,MIC,,50 µg/mL
CC(C)=CC(=O)O[C@@H]1[C@H]2C(C)C(=O)O[C@H]2[C@@H](O)[C@H](C)[C@H]2C=CC(=O)[C@@]21C,H37Rv,,BACTEC,,inhibition,12.5 µg/mL,18%
CCOC(=O)c1c(NC(C)=O)sc2c1CCN(C(=O)OCC)C2,H37Rv,,resazurin,,MIC,,>100 µg/mL
NC1CCOC1=O,H37Rv,,BACTEC,,MIC bound,,>12.5 µg/mL
CC(CCC(=O)N[C@@H](C)C(=O)OCc1cn(CC2OC(n3cnc4c(N)ncnc43)[C@@H]3OC(C)(C)O[C@H]23)nn1)[C@H]1CCC2C3C(C[C@H](O)[C@@]21C)[C@@]1(C)CC[C@@H](O)CC1C[C@H]3O,H37Rv,,resazurin,,MIC,,7.35 µM
O=C1CCC(N2C(=O)C3C(C2=O)C2(Cl)C(Cl)=C(Cl)C3(Cl)C2(Cl)Cl)C(=O)N1,H37Rv,,BACTEC,,inhibition,12.5 µg/mL,-2%
CCc1nc2ccc(Cl)cn2c1C(=O)NCc1ccc(NCCN2CCOCC2)c(F)c1,H37Rv,,resazurin,,MIC90,,<2 µM
CN1[C@@H]2CC(OC(=O)[C@H](CO)c3ccccc3)C[C@H]1[C@@H]1O[C@@H]12,H37Rv,,BACTEC,,MIC,,≥12.8 µg/mL
C=CCn1c(C)c(C(=O)O)s/c1=N\N=C1/C(=O)Nc2ccccc21,H37Rv,,,,MIC,,>12.5 µg/mL

The first 5 rows once more:

{"compound": "CCN(CC)CCNC(=O)c1cc([N+](=O)[O-])cc([N+](=O)[O-])c1", "strain": "N353", "read-out": "MIC", "value": "5 µg/mL"}
{"compound": "Cc1ccc(Cn2nnc(-c3cc([N+](=O)[O-])cc([N+](=O)[O-])c3)n2)cc1", "strain": "9449/2007", "conditions": "21 d", "read-out": "MIC", "value": "0.125 µM"}
{"compound": "CCn1c(SCC(=O)N=Nc2c(O)[nH]c3ccccc23)nc2ccccc2c1=O", "strain": "H37Rv", "read-out": "MIC", "value": ">12.5 µg/mL"}
{"compound": "CCC1=C2C(=O)c3ccccc3C2=C(C)S(=O)(=O)O1", "strain": "H37Rv", "method": "BACTEC", "read-out": "MIC bound", "value": ">12.5 µg/mL"}
{"compound": "CO[C@H]1/C=C/O[C@@]2(C)Oc3c(C)c(O)c4c(O)c(c5c(c4c3C2=O)NC2(CCN(CC(C)C)CC2)N=5)=NC(=O)/C(C)=C\\C=C\\[C@H](C)[C@H](O)[C@@H](C)[C@@H](O)[C@@H](C)[C@H](OC(C)=O)[C@@H]1C", "strain": "H37Rv-pSL (Leu 531 mutation)", "read-out": "MIC", "value": "16 µg/mL"}

MIC bound: limit read from a one-dose screen. Two numbers with a dash give a range or band. ECn: concentration that inhibits the pathogen or its effect by n%. MIC50, MIC90 and the like: level of inhibition, or share of isolates inhibited. Rows are shuffled and stem from different studies. Blank or dashed fields: not listed here.